The record followed here is patent publication US20250002564A1 (HOSPITAL FOR SICK CHILDREN, published 2025).

Assay [1] has as its target T1, SARS-CoV-2 Spike on wild-type pseudotyped virus (PsV) (SARS-CoV-2). Put plainly: cell-based or functional assay.
Assay [2] addresses T1, SARS-CoV-2 Spike on wild-type …. As to the kind of experiment: cell-based or functional assay. This is another data set of the same source.

B1: VHH-72 fused to the light chain of human apoferritin (24-mer particle) (other)
chain: QVQLQESGGGLVQAGGSLRLSCAASGRTFSEYAMGWFRQAPGKEREFVATISWSGGSTYYTDSVKGRFTISRDNAKNTVYLQMNSLKPDDTAVYYCAAAGLGTVVSEWDYDYDYWGQGTQVTVSGGGGSGGGGSGGGGSGGGGSGGGGSGGGSSQIRQNYSTDVEAAVNSLVNLYLQASYTYLSLGFYFDRDDVALEGVSHFFRELAEEKREGYERLLKMQNQRGGRALFQDIKKPAEDEWGKTPDAMKAAMALEKKLNQALLDLHALGSARTDPHLCDFLETHFLDEEVKLIKKMGDHLTNLHRLGGPEAGLGEYLFERLTLRHD
As for B1, the “fold increase in PsV neutralization potency against VHH-72-Fc” value in assay [1] was roughly 10000 fold. Besides, in assay [2], the “Median IC50” value amounted to 0.13 pM.
